Compound potency records, mixed from different reports. Data source: NIAID ChemDB in PubChem.

Common to all: growth or infection tests; species: HIV-1; endpoint: fold resistance

An empty or dashed field is not shown.

smiles | method | strain or isolate | cell line | mutations | value
Cc1c(Sc2ccccc2)n(COCCO)c(=O)[nH]c1=O | cytopathic effect / XTT | IIIB | CEM + CEM-SS | RT-A98G V108I | >18
C/C=C/CSc1cc(NC(=S)c2ccsc2C)ccc1Cl | cytopathic effect / XTT | NL4-3 (RT A98G) | CEM + CEM-SS | RT-A98G | 2
Cc1cn([C@H]2C[C@H](N=[N+]=[N-])[C@@H](CO)O2)c(=O)[nH]c1=O | MTT |  | MT-4 | F227L V106A | 0.2
Nc1ncnc2c1ncn2CCOCP(=O)(O)O | syncytia | IIIB TSAO-T(RT-E138K) | CEM | RT-E138K | 2.14
CC(C)=CCN1c2cc(Cl)cc3[nH]c(=S)n(c23)C[C@@H]1C |  |  | MT-4 | RT-M41L T215Y K101E | 15
CCOCn1c(Cc2cc(C)cc(C)c2)c(CC)c(=O)[nH]c1=O | syncytia | IIIB TSAO-T(RT-E138K) | CEM | RT-E138K | 70
Cc1ccc(NC(=O)CSc2nnc(C)n2-c2ccccc2Cl)c(Cl)c1 | luciferase | NL4-3 | HeLa + HeLa-JC53 | RT-K103N Y181C | 13
CC(C)Nc1cccnc1N1CCN(C(=O)c2cc3cc(NS(C)(=O)=O)ccc3[nH]2)CC1 | cytopathic effect | BI-03.97 (HXB2(RT-A62V S68G T69D V75I F77L F116Y Q151M)) | MT-4 | RT-A62V S68G T69D V75I F77L F116Y Q151M | 2
O=C(Nc1ccccc1)C1=COCCS1 | cytopathic effect / XTT | IIIB HEPT-resistant (RT P236L) | CEM + CEM-SS | RT-P236L | 2.8
Cc1ccnc2c1NC(=O)c1cccnc1N2C1CC1 | XTT | NL4-3 | CEM + CEM-SS | RT-V179D | 1.5
CC(C)CN(C[C@@H](O)[C@H](Cc1ccccc1)NC(=O)O[C@H]1CCOC1)S(=O)(=O)c1ccc(N)cc1 | p24 / ELISA | IIIB | MT-2 | I401T | 0.8
Cc1cn([C@H]2C[C@H](N=[N+]=[N-])[C@@H](CO)O2)c(=O)[nH]c1=O |  |  |  | INTG-N155H | 1
Cc1cc(S(N)(=O)=O)ccc1NC(=O)COc1ccc(Cl)cc1C(=O)c1cc(Cl)cc(C#N)c1 | β-galactosidase | NNRTI-resistant (RT Y188C) | MAGI | RT-Y188C | 0.21
C#C[C@@]1(CO)C=C[C@H](n2cc(C)c(=O)[nH]c2=O)O1 | β-galactosidase | HXB2 | MAGI (CCR5) + MAGI | RT-M184V | 11.3
CC[C@H]1C(=O)Nc2ccc(F)cc2N1C(=O)OC(C)C | cytopathic effect | Y-1 (RT-K103N) | CEM | RT-K103N | 51
CN[C@H]1CO[C@@H]2OCC[C@H](OC(=O)N[C@@H](Cc3cccc(OC)c3)[C@H](O)CN(CC(C)C)S(=O)(=O)c3ccc4nc(NC(C)C)sc4c3)[C@@H]21 | p24 / luminescence | NL4-3 | MT-4 | L23I E34Q K43I M46I I50L G51A L63P A71V V82A T91A | 0.1
Nc1nc2c(ncn2[C@H]2CO[C@@H](CO)O2)c(=O)[nH]1 |  | RT-62V 69[SS] 70R 215Y |  | RT A62V T69SS insertion K70R T215Y | 1
Nc1nc(NC2CC2)c2ncn([C@H]3C=C[C@@H](CO)C3)c2n1 | RT activity | 7295-1 NRTI resistant recombinant | PBMC | RT-D67N T69N K70R M184V T215F K219Q | 6.1
Cc1ccnc2c1NC(=O)c1cccnc1N2C1CC1 |  | VAU (RT-A98G) | PBMC | RT-A98G | 1
CC(C)(C)C(=O)c1sc(C(=O)NCCc2ccccc2)c(O)c1O |  |  |  | INTG-V151I | 1
CCN[C@H]1CO[C@@H]2OCC[C@H](OC(=O)N[C@@H](Cc3cccc(OC)c3)[C@H](O)CN(CC(C)C)S(=O)(=O)c3ccc4nc(NC(C)C)sc4c3)[C@@H]21 | p24 / luminescence | NL4-3 | MT-4 | L10F M46I I54V V82A | 10
Cc1cn([C@H]2C=C[C@@H](CO)O2)c(=O)[nH]c1=O | cytopathic effect | BI-03.97 (HXB2(RT-A62V S68G T69D V75I F77L F116Y Q151M)) | MT-4 | RT-A62V S68G T69D V75I F77L F116Y Q151M | >40
Nc1ncnc2c1ncn2CC(CF)OCP(=O)(O)O | syncytia | IIIB TIBO R82913 STR-B02 (RT L100I E138K) | CEM | RT-L100I E138K | 1.33
Nc1ccn([C@@H]2CS[C@H](CO)O2)c(=O)n1 | RT activity | 7324-1 NRTI resistant recombinant | PBMC | RT-M41L D67N T69N K70R T215F K219E | 4.1
Cc1cn([C@H]2C[C@H](N=[N+]=[N-])[C@@H](CO)O2)c(=O)[nH]c1=O | p24 / ELISA | IIIB | MT-2 | K112M K113E V128I M200I H219P I401T R409K D437N L441P | 0.5
Cc1cn([C@@H]2O[C@H](CO[Si](C)(C)C(C)(C)C)C3(OS(=O)(=O)C=C3N)[C@H]2O[Si](C)(C)C(C)(C)C)c(=O)n(C)c1=O | syncytia | IIIB TIBO R82913 STR-1 (RT L100I Y181C) | CEM | RT-L100I Y181C | >1670
Cc1cc(O)cc(S(=O)(=O)c2cccc(N)c2C#N)c1 | β-galactosidase |  | HeLa + HELA CD4+ | RT-Y188C | 6.35
O=c1[nH]cnc2c1ncn2[C@H]1CC[C@@H](CO)O1 | p24 | HXB2-D184 (RT-M184V) | MT-4 | RT-M184V | 4.41
Cc1occc1C(=S)Nc1ccc(Cl)c(/C=N/OC(C)(C)C)c1 | cytopathic effect / XTT | NL4-3 (RT V179D) | CEM + CEM-SS | RT-V179D | 8.75
Cc1ccc(NC(=O)CSc2nnc(C)n2-c2c(C)ccc3ccccc23)c(Cl)c1 | luciferase | NL4-3 | HeLa + HeLa-JC53 | RT-K103N Y181C | 60
Cc1cc(Cl)cc(S(=O)(=O)c2cccc(N)c2C#N)c1 | β-galactosidase |  | HeLa + HELA CD4+ | RT-V106A | 0.167
CCc1ccc(-n2c(C)nnc2SCC(=O)Nc2ccccc2Br)c2ccccc12 | luciferase | NL4-3 | HeLa + HeLa-JC53 | RT-K103N Y181C | 44
Cc1cn([C@H]2C[C@H](N=[N+]=[N-])[C@@H](CO)O2)c(=O)[nH]c1=O | cytopathic effect / XTT | IIIB | CEM + CEM-SS | RT-Y181C | 0.2
Cc1ccnc2c1NC(=O)c1cccnc1N2C1CC1 | cytopathic effect | E-2 (RT-V106A) | CEM | RT-V106A | 55
CC(C)(C)NC(=O)[C@@H]1C[C@@H]2CCCC[C@@H]2CN1C[C@@H](O)[C@H](Cc1ccccc1)NC(=O)[C@H](CC(N)=O)NC(=O)c1ccc2ccccc2n1 | p24 | NL4-3 | MT-4 | PR-M46I V82T I84V | 2
Fc1cccc(F)c1C1SCc2nc3ccccc3n21 | cytopathic effect |  | CEM | RT-Y181C | 9.93
Cc1cn([C@H]2C[C@H](N=[N+]=[N-])[C@@H](CO)O2)c(=O)[nH]c1=O | plaque count | A036C (RT-T215Y) | HT4 + HT4-6C | RT-T215Y | 60
Nc1ccn([C@H]2CC[C@@H](CO)O2)c(=O)n1 | plaque count | HXB2 | CD4+HELA + HeLa | RT-V75T | 19.3
O=c1[nH]cnc2c1ncn2[C@H]1CC[C@@H](CO)O1 | plaque count | HIVRTMF (RT L74V) | HT4 + HT4 LacZ-1 | RT-L74V T215Y | 7.14
Cc1cn([C@H]2C[C@H](N=[N+]=[N-])[C@@H](CO)O2)c(=O)[nH]c1=O | RT activity | 4755-5 NRTI resistant recombinant | PBMC | RT-M41L E44D D67N T69D Y118I M184V L210W T215Y | 61
Cc1ccnc2c1NC(=O)c1cccnc1N2C1CC1 | β-galactosidase | HXB2 | MAGI (CCR5) + MAGI | RT-Y181C | 170
Nc1nc(=O)n([C@@H]2CS[C@H](CO)O2)cc1F |  |  |  | RT-M41L D67N V106A M184V T215Y | ~31
Nc1ccn([C@H]2CC[C@@H](CO)O2)c(=O)n1 | cytopathic effect | NI-10.93 (HXB2 RT T69N K70R Q151M) | MT-4 | RT-T69N K70R Q151M | 8.55
Cc1cn([C@H]2C[C@H](N=[N+]=[N-])[C@@H](CO)O2)c(=O)[nH]c1=O |  | MVP5180 (RT A98G K103R) | PBMC | RT-A98G K103R | 1
CC(C)=CCOc1cc(NC(=S)c2ccoc2C)ccc1Cl | cytopathic effect | C-1 (RT-K101E) | CEM | RT-K101E | 3
COC(=O)N[C@H](C(=O)N[C@@H](Cc1ccccc1)[C@@H](O)CN(Cc1ccc(-c2ccccn2)cc1)NC(=O)[C@@H](NC(=O)OC)C(C)(C)C)C(C)(C)C | p24 / luminescence | NL4-3 | MT-4 | L10F L33I M36I M46I I54V K55R I62V L63P A71V G73S V82T | >213
COC(=O)c1cc2c(c(OC)c1-c1ccc(N(C)C)cc1)OCO2 | antigen | NL4-3 | C8166 | E138K | 34
CC(C)OC(=O)OCOP(=O)(CO[C@H](C)Cn1cnc2c(N)ncnc21)OCOC(=O)OC(C)C | RT activity | 1617-1 NRTI resistant recombinant | PBMC | RT-T69K K70G V75I F77L F116Y Q151M M184V | 2.4
COc1cc(C(F)(F)F)cc(S(=O)(=O)c2cccc(N)c2C#N)c1 | β-galactosidase |  | HeLa + HELA CD4+ | RT-K103N | 129
CC(C)=CCN1Cc2cc(Cl)cc3[nH]c(=S)n(c23)C[C@@H]1C | syncytia | IIIB TIBO R82150-resistant (RT L100I) | CEM | RT-L100I | 85
Cc1cn([C@H]2C[C@H](N=[N+]=[N-])[C@@H](CO)O2)c(=O)[nH]c1=O | XTT | 3TC-resistant (RT M184V) | CEM + CEM-SS | RT-M184V | 0.4
CCc1c(Sc2ccccn2)n(COCc2ccccc2)c(=O)[nH]c1=O | cytopathic effect / XTT | NL4-3 | CEM + CEM-SS | RT-V108I | 2.78
C[C@H](Cn1cnc2c(N)ncnc21)OCP(=O)(O)O | p24 | 1391-4 high AZT resistance (RT D67 K70 T215) | MT-2 | RT-D67 K70 T215 | 0.235
Cc1cn([C@H]2C=C[C@@H](CO)O2)c(=O)[nH]c1=O |  | RT-69N 70R 151M 215F |  | RT-T69N K70R Q151M T215F | >6
Cc1ccnc2c1NC(=O)c1cccnc1N2C1CC1 | cytopathic effect / XTT | NL4-3 (RT A98G) | CEM + CEM-SS | RT-A98G | 10
CCN[C@H]1CO[C@@H]2OCC[C@H](OC(=O)N[C@@H](Cc3ccccc3)[C@H](O)CN(CC(C)C)S(=O)(=O)c3ccc4nc(NC5CC5)sc4c3)[C@@H]21 | p24 / luminescence | NL4-3 | MT-4 | L10F K20T D30N K45I A71V V77I | 1
Nc1ccn([C@@H]2CO[C@H](CO)S2)c(=O)n1 | RT activity | HXB2D (M1841I) | CBMC | RT-M184I | 1
Cc1cc(C#N)cc(C)c1Oc1nc(Nc2ccc(C#N)cc2)ncc1SCC(=O)N1CCSCC1 | MTT |  | MT-4 | Y181C | 9.4
Nc1nc2c(ncn2[C@H]2CO[C@@H](CO)O2)c(=O)[nH]1 |  | Clinical isolate |  | RT-K103N | ~0.172
O=c1[nH]cnc2c1ncn2[C@H]1CC[C@@H](CO)O1 | plaque count | HXB2(184) (RT-M184V) | HT4 + HT4 LacZ-1 | RT-M184V | 2.81
O=c1[nH]cnc2c1ncn2[C@H]1CC[C@@H](CO)O1 |  | BCF11 | PBMC | RT-A98G K103R | 0.529
CCCN(C)C(=O)Oc1nsnc1-c1c(Cl)ccc(N)c1Cl | MTT | IIIB | MAGI | RT-V108I | 2.37
CC(C)Oc1ccc(Cc2ccccc2)cc1C(=O)CC(=O)C(=O)O |  |  |  | INTG-S153Y | 1
CC(C)CN(C[C@@H](O)[C@H](Cc1ccccc1)NC(=O)O[C@H]1CCOC1)S(=O)(=O)c1ccc(N)cc1 | p24 / luminescence | NL4-3 | MT-4 | L10I M46L I54V V82A | >27
Cc1cc(Br)cc(S(=O)(=O)c2cccc(N)c2C#N)c1 | β-galactosidase |  | HeLa + HELA CD4+ | RT-Y188C | 19.1
CC(C)CN(C[C@@H](O)[C@H](Cc1ccccc1)NC(=O)[C@H](CC(N)=O)NC(=O)c1ccc2ccccc2n1)C(=O)NC(C)(C)C | p24 | NL4-3 | MT-4 | PR-M46I | 1
Nc1ccn([C@H]2C=C[C@@H](CO)O2)c(=O)n1 | plaque count | HXB2 | CD4+HELA + HeLa | RT-V75T 184V | 2.22
Fc1cccc(F)c1C1SCc2nc3ccccc3n21 | cytopathic effect / XTT | UC82-R (RT-Y181C) | CEM + CEM-SS | RT-Y181C | >20.3
Nc1nc(=O)n([C@@H]2CS[C@H](CO)O2)cc1F | plaque count | RTMN (RT-M41L T215Y) | HT4 + HT4 LacZ-1 | RT-M41L 215Y | 3.78
O=c1[nH]cnc2c1ncn2[C@H]1CC[C@@H](CO)O1 | syncytia | IIIB nevirapine-resistant (RT Y181C) | CEM | RT-Y181C | 5
Cc1ccc(S(=O)(=O)N(CC(C)C)C[C@@H](O)[C@H](Cc2ccccc2)NC(=O)O[C@H]2CO[C@H]3OCC[C@H]32)cc1 | p24 / ELISA | IIIB | MT-2 | M200I | 0.8
Cc1ccc(NC(=O)CSc2nnc(C)n2-c2ccccc2)c(Br)c1 | luciferase | NL4-3 | HeLa + HeLa-JC53 | RT-Y188L | >100
O=c1[nH]cnc2c1ncn2[C@H]1CC[C@@H](CO)O1 | plaque count | JF26 (RT M41L D67N T69D L210W T215Y) | HELA-CD4+ | RT-M41L D67N T69D L210W T215Y | 0.83

The last 9 rows once more:

smiles,method,strain or isolate,cell line,mutations,value
Cc1cc(Br)cc(S(=O)(=O)c2cccc(N)c2C#N)c1,β-galactosidase,,HeLa + HELA CD4+,RT-Y188C,19.1
CC(C)CN(C[C@@H](O)[C@H](Cc1ccccc1)NC(=O)[C@H](CC(N)=O)NC(=O)c1ccc2ccccc2n1)C(=O)NC(C)(C)C,p24,NL4-3,MT-4,PR-M46I,1
Nc1ccn([C@H]2C=C[C@@H](CO)O2)c(=O)n1,plaque count,HXB2,CD4+HELA + HeLa,RT-V75T 184V,2.22
Fc1cccc(F)c1C1SCc2nc3ccccc3n21,cytopathic effect / XTT,UC82-R (RT-Y181C),CEM + CEM-SS,RT-Y181C,>20.3
Nc1nc(=O)n([C@@H]2CS[C@H](CO)O2)cc1F,plaque count,RTMN (RT-M41L T215Y),HT4 + HT4 LacZ-1,RT-M41L 215Y,3.78
O=c1[nH]cnc2c1ncn2[C@H]1CC[C@@H](CO)O1,syncytia,IIIB nevirapine-resistant (RT Y181C),CEM,RT-Y181C,5
Cc1ccc(S(=O)(=O)N(CC(C)C)C[C@@H](O)[C@H](Cc2ccccc2)NC(=O)O[C@H]2CO[C@H]3OCC[C@H]32)cc1,p24 / ELISA,IIIB,MT-2,M200I,0.8
Cc1ccc(NC(=O)CSc2nnc(C)n2-c2ccccc2)c(Br)c1,luciferase,NL4-3,HeLa + HeLa-JC53,RT-Y188L,>100
O=c1[nH]cnc2c1ncn2[C@H]1CC[C@@H](CO)O1,plaque count,JF26 (RT M41L D67N T69D L210W T215Y),HELA-CD4+,RT-M41L D67N T69D L210W T215Y,0.83

Fold resistance has wild type as its base. Conditions beyond the fields shown may differ between rows.